Reference: US20260382604A1, “Inhibitors of Type 1 Methionyl-tRNA Synthetase and Methods of Using Them” (published 2026)

Key:
MRSA = test: Susceptibility testing (MIC), MRSA
Description: (§1) Media and culture conditions. Mueller Hinton broth (MHB), cation adjusted Mueller Hinton broth (CA-MHB), Todd Hewitt Broth (THB) and Brain Heart Infusion broth (BHI) were purchased from Becton Dickinson (Franklin Lakes, NJ). Tryptic soy agar (TSA) plates and TSA with 5% sheep blood plates were purchased from Remel (San Diego, CA). MHB was used to assay all Staphylococcus aureus strains. CA-MHB was used for Staphylococcus epidermidis, Enterococcus faecalis, Enterococcus faecium, Escherichia coil, and Pseudomonas aeruginosa. THB broth supplemented with 1% yeast extract was used for Streptococcus pneumoniae and Streptococcus pyogenes. Staphylococcus. Enterococcus, Escherichia, and Pseudomonas strains were cultured at 37 °C with ambient air. Streptococcus strains were cultured in 37 °C with 5% CO2. Separate conditions for radiolabeled precursor uptake assays are described below.
(§2) Susceptibility testing: Minimum inhibitory concentration (MIC) determinations are performed in triplicate in 96-well round bottom microtiter plates (Corning, Corning NY) as described by the Clinical and Laboratory Standards Institute (CLSI). Serial two-fold dilutions of compounds are added to plates in 50 μL volumes. An additional 50 μL of media containing bacterial cells (1×10^6 CFUs/mL) is then added to each well. Maximum DMSO concentrations are 0.5%. Plates are incubated at 37 °C for at least 18 h before reading the susceptibility result by optical absorbance (OD600) using a BioTek ELx800. The lowest concentration causing ≥90% growth inhibition compared to the untreated control is recorded as the MIC (and also corresponded to the visual MIC). MICs are measured at least twice and the higher value (if different) is recorded herein.

S. pyogenes = test: Susceptibility testing (MIC), S. pyogenes; conditions: ATCC19615
Description: as §1, §2

T. brucei = test: Trypanosoma brucei growth inhibition assay; conditions: read-out: T. brucei EC50; in vitro growth inhibition
Protocol: Trypanosoma brucei growth inhibition assay: Compounds are tested for anti-trypanosomal activity against Trypanosoma brucei cells (BSF 427 parasites) in HMI-9 media containing 10% heat inactivated FBS 100 U mL^−1 penicillin/100 μg mL^−1 streptomycin at 37 °C with 5% CO2. Test compounds are assayed in a 96-well format in triplicate with serial 3-fold dilutions of compound or a pentamidine control against an initial inoculum of 10 000 cells/well and quantified at 48 hours with Alamar Blue (Invitrogen, Waltham, MA).

S. aureus = test: Susceptibility testing (MIC), S. aureus; conditions: ATCC29213
Description: as §1, §2

T. cruzi = T. cruzi growth inhibition assay; conditions: read-out: T. cruzi EC50; in vitro growth inhibition (Table 4)
Protocol: Trypanosoma crud growth inhibition assay: The Tulahuen strain of T. cruzi that expresses the Escherichia coli 3-galactosidase gene was utilized (PMID: 8913471). Mammalian stages of parasites were grown at 37 °C on monolayers of murine 3T3 fibroblasts in RPMI 1640 (Biowhittaker Inc., Walkersville, Md.) with 10% fetal bovine serum, penicillin, streptomycin, and glutamine. Growth inhibition assays were performed in 96-well tissue culture plates (Costar, Cambridge, Mass.). First, 3T3 fibroblasts were inoculated at 103/well using RPMI 1640 without phenol red (Biowhittaker Inc.) plus 10% fetal bovine serum and glutamine. The next day, the plates were infected with T. cruzi trypomastigotes at 104/well. After 4 h, drugs were added in serial dilutions to give a final volume of 200 μl/well. The plates were incubated at 37 °C in 5% CO2 atmosphere for 6 days. At this time. CPRG (100 μM final) and Nonidet P-40 (0.1% final) (Sigma Chemical Co., St. Louis, Mo.) were added and the plates were incubated at 37 °C for approximately 4 h. Wells with 0-galactosidase activity turned the media from yellow to red, and this was quantified on an enzyme-linked immunosorbent assay reader at A570.

Compound | MRSA (ATCC33591) MIC (MRSA) | S. pyogenes (ATCC19615) MIC (S. pyogenes) | EC50 (T. brucei) | S. aureus (ATCC29213) MIC (S. aureus) [mg/L] | EC50 (T. cruzi) [nM]
COc1cc(Cl)c(-c2cncc3nn(Cc4nc5nc(Cl)ccc5[nH]4)cc23)cc1OC | 0.111 mg/L and 0.0713 mg/L | 0.395 mg/L | 9.23 nM | – | –
COc1cc(Cl)c(-c2cnc(NCC(C)(C)N)c3nn(Cc4nc5nc(Cl)ccc5[nH]4)cc23)cc1OC | – | – | 90.8 nM | >8.00 | –
CCOc1ncc(-c2cc(OC)c(OC)cc2Cl)c2cn(Cc3nc4ccc(Cl)nc4[nH]3)nc12 | 0.271 mg/L | 0.518 mg/L | 4.02 nM | 0.167 | –
COc1cc(Cl)c(-c2cnc(NC3CCOCC3)c3nn(Cc4nc5ccc(Cl)nc5[nH]4)cc23)cc1OC | 0.463 mg/L | 1.32 mg/L | 2.75 nM | 0.349 | –
COc1cc(Cl)c(-c2cnc(N3CCC(F)(F)CC3)c3nn(Cc4nc5ccc(Cl)nc5[nH]4)cc23)cc1OC | 0.11 mg/L | 0.544 mg/L | 1.06 nM | 0.113 | –
COc1cc(Cl)c(-c2cnc(N3CCN(S(C)(=O)=O)CC3)c3nn(Cc4nc5nc(Cl)ccc5[nH]4)cc23)cc1OC | 0.174 mg/L | 0.237 mg/L | – | 0.0969 | 179
COc1cc(Cl)c(-c2cnc(N3CCNCC3)c3nn(Cc4nc5nc(Cl)ccc5[nH]4)cc23)cc1OC | 0.718 mg/L | >4.00 mg/L | 24 nM | 0.724 | –
COc1cc(Cl)c(-c2cnc(OCC(C)(C)O)c3nn(Cc4nc5nc(Cl)ccc5[nH]4)cc23)cc1OC | 0.337 mg/L | 0.197 mg/L | – | 0.292 | 292
COc1cc(Cl)c(-c2cnc(Cl)c3nn(Cc4nc5nc(F)ccc5[nH]4)cc23)cc1OC | 0.0658 mg/L | 0.507 mg/L | 14.1 nM | 0.104 | –
COc1cc(Cl)c(-c2cnc(N3CC4CCC(C3)O4)c3nn(Cc4nc5ccc(Cl)nc5[nH]4)cc23)cc1OC | 0.123 mg/L | 0.242 mg/L | < 0.91 nM | 0.11 | –
COc1cc(Cl)c(-c2cnc(N3CCS(=O)(=O)CC3)c3nn(Cc4nc5nc(Cl)ccc5[nH]4)cc23)cc1OC | 0.072 mg/L | 0.12 mg/L | – | 0.0835 | 329
COc1cc(Cl)c(-c2cncc3nn(Cc4nc5nc(F)ccc5[nH]4)cc23)cc1OC | – | 0.473 mg/L and 0.246 mg/L | 5.58 nM and 8.66 nM | 0.0583 | –

Values joined by “and” are separate entries in the source; they are usually repeats but may differ in a detail not shown here. Equal entries are not always repeated.
